Source: PubChem BioAssay AID1224833 (University of Georgia, 2016)

Purpose: 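Host factors restraining rotavirus as candidate antiviral genes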 (primary screen)
Cells: monkey MA104 kidney cells
Reagents: siRNA pool against human genes, 50 nM
Timing: 48 h knock-down before infection; read 24 h after infection
Treatment: infection with rotavirus strain RV3 two days after transfection; infectious dose for this stage not given
Measured: 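Rotavirus antigen per well by fluorescent immunoassay, normalised to non-targeting control wells on each plate and given as a standard z-score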
Scale: z-score vs non-targeting control: higher = more rotavirus replication than with non-targeting control
Hit rule: In these data the active calls have z-score vs non-targeting control at about -1 or lower, or at about 1 or higher
Meaning of the calls: active = z-score beyond 1 either way; inactive = z-score within 1 of zero
The deposit covers about 12,000 reagents; this is a random part of them. About 5,600 of them (46%) count as active. 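Active calls cover z-scores past 1 in both directions, so they include lowered as well as raised rotavirus replication.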 No sequences are given here.

no.	gene symbol	z-score vs non-targeting control	outcome
1	PDE10A	-0.565	inactive
2	KLRC3	1.66	active
3	HPSE2	0.851	inactive
4	ABHD12	0.317	inactive
5	NMT2	-0.878	inactive
6	P3H4	-2.21	active
7	ITIH3	-0.478	inactive
8	MRPL16	-0.916	inactive
9	DISC1	0.23	inactive
10	USH2A	0.162	inactive
11	MRM3	-0.48	inactive
12	NECAB3	-1.79	active
13	OR52D1	-1.56	active
14	WDR26	-0.277	inactive
15	ANGPTL4	1.79	active
16	OSBPL8	-1.38	active
17	ESRRA	0.545	inactive
18	TBC1D1	-1.11	active
19	TIMM21	-0.615	inactive
20	FAM124A	-1.37	active
21	ASS1	0.609	inactive
22	TRPT1	0.48	inactive
23	IFNA8	-0.296	inactive
24	MFAP3	1.76	active
25	SUSD4	0.649	inactive
26	KANK1	-2	active
27	MRPL53	0.293	inactive
28	PLEKHF2	0.932	inactive
29	UQCRB	-2.62	active
30	RHOBTB2	-2.19	active
31	KLF15	-1.61	active
32	HPR	1.55	active
33	MRS2	3.16	active
34	CPT2	-0.604	inactive
35	FARP2	-0.553	inactive
36	SARS1	-2.8	active
37	MVP	-0.398	inactive
38	SPO11	-0.91	inactive
39	MCRS1	-0.455	inactive
40	CAMP	0.58	inactive
41	GPA33	3.32	active
42	ILF2	0.582	inactive
43	FOSL1	0.536	inactive
44	CTAG2	-1.14	active
45	TAS2R60	0.848	inactive
46	SFMBT1	1.03	active
47	DPH5	1.09	active
48	RASGRP4	-0.778	inactive
49	CDC42EP3	-4.27	active
50	ZNF443	-0.795	inactive
51	PDE3B	-1.01	active
52	PUM1	0.114	inactive
53	SLC22A4	-1.72	active
54	SUPT4H1	-0.809	inactive
55	ZNF546	-0.429	inactive
56	INS	0.179	inactive
57	MYOM2	-0.515	inactive
58	H3C4	0.0203	inactive
59	RPF1	0.337	inactive
60	CP	-1.47	active
61	EEIG1	1.65	active
62	SLC35A1	-1.97	active
63	TM9SF3	0.516	inactive
64	LIN7B	-0.755	inactive
65	VIPR2	-0.968	inactive
66	TCP11	0.602	inactive
67	SLC16A9	2.44	active
68	RNH1	0.122	inactive
69	TM4SF18	-0.932	inactive
70	DLGAP1	0.692	inactive
71	PHTF2	-1.17	active
72	ALG10	-2.39	active
73	NFKB1	0.719	inactive
74	GTF2B	-0.772	inactive
75	CALML5	-0.673	inactive

Not a retest: an excerpt of the list.
no.	gene symbol	z-score vs non-targeting control	outcome
35	FARP2	-0.553	inactive
36	SARS1	-2.8	active
37	MVP	-0.398	inactive
38	SPO11	-0.91	inactive
39	MCRS1	-0.455	inactive
40	CAMP	0.58	inactive
41	GPA33	3.32	active
